Compound potency records, mixed from different reports. Data source: NIAID ChemDB in PubChem.

All rows: growth or infection tests; agent: Herpes simplex virus 2; method: plaque count; read-out: EC50

ECn is the concentration giving n% inhibition of infection, replication or growth. Blank or dashed fields: not listed here. Conditions beyond the fields shown may differ between rows.

| SMILES | strain or isolate | cells | value |
|---|---|---|---|
| C[C@@H](N)C(=O)O[C@H]1C[C@H](n2cc(/C=C/Br)c(=O)[nH]c2=O)O[C@@H]1COP1(=O)OCc2ccccc2O1 | G (TK+) | VERO | >128 µg/mL |
| CCCCCc1c(O)cc(O)c2c(=O)c3ccccc3n(C)c12 | - | HEF | 10 µg/mL |
| C[C@H]1O[C@@H](O[C@H]2[C@@H](O)C[C@H](O[C@H]3CC[C@@]4(C)[C@H](CC[C@@H]5[C@@H]4CC[C@]4(C)[C@@H](C6=CC(=O)OC6)CC[C@]54O)C3)O[C@@H]2C)C[C@H](O)[C@@H]1O | 333 | GMK AH1 | 0.09 µM |
| COc1nc(N)nc2c1ncn2C=C1CC1CO | - | VERO | >50 µM |
| O=C(O)P(=O)(O)O | B4327UR | SIRC | <100 µM |
| CCCCCc1c2c(c3c(c1O)c(=O)c1ccccc1n3C)C=CC(C)(C)O2 | - | HEF | >20 µg/mL |
| Nc1ncnc2c1ncn2CCOCP(=O)(O)O | G | VERO | 119 µM |
| CCn1cc(C2=NCCO2)c(=O)c2ccc(-c3ccncc3)cc21 | - | VERO | >12.5 µg/mL |
| COc1cc(OC)c2c(=O)c3ccccc3n(C)c2c1 | - | HEF | >20 µg/mL |
| COC(=O)[C@H](C)NP(=O)(OC[C@H]1C/C1=C\n1cnc2c(=O)[nH]c(N)nc21)Oc1ccccc1 | - | VERO | >100 µM |
| Nc1nc2c(ncn2[C@H]2C[C@@]23C[C@@H]3CO)c(=O)[nH]1 | - | VERO | >50 µM |
| NCC(O)c1ccc(O)c(O)c1 | G | HEL | 23 µg/mL |
| COc1c(O)ccc2c(=O)c3c(O)cc(O)cc3n(C)c12 | - | HEF | >20 µg/mL |
| N=C(N)c1cn([C@@H]2O[C@H](CO)[C@@H](O)[C@@H]2O)c2ncnc(N)c12 | MS | VERO | >100 µM |
| CC(=O)O[C@H]1[C@@H](O)C[C@H](O[C@H]2[C@@H](O)C[C@H](O[C@H]3[C@@H](O)C[C@H](O[C@H]4CC[C@@]5(C)[C@H](CC[C@@H]6[C@@H]5CC[C@]5(C)[C@@H](C7=CC(=O)OC7)CC[C@]65O)C4)O[C@@H]3C)O[C@@H]2C)O[C@@H]1C | 333 | GMK AH1 | 0.5 µM |
| O=c1c2ccccc2[nH]c2cc(O)cc(O)c12 | - | HEF | 7.3 µg/mL |
| CCn1cc2c(=O)n(C)nc-2c2ccc(-c3ccncc3)cc21 | - | VERO | >3.1 µg/mL |
| CO[C@H]1C[C@H](O[C@H]2[C@@H](O)C[C@H](O[C@H]3[C@@H](O)C[C@H](O[C@H]4CC[C@@]5(C)[C@H](CC[C@@H]6[C@@H]5CC[C@]5(C)[C@@H](C7=CC(=O)OC7)CC[C@]65O)C4)O[C@@H]3C)O[C@@H]2C)O[C@H](C)[C@H]1O | 333 | GMK AH1 | 0.05 µM |
| O=C(O)P(=O)(O)O | G | - | 165 µM |
| NC(=O)c1csc2cc(-c3ccncc3)ccc2c1=O | - | VERO | >100 µg/mL |
| Cc1cc(=O)oc2cc(O)c(O)cc12 | G | HEL | 12 µg/mL |
| CCn1cc(C(N)=O)c(=O)c2ccc(-n3ccnc3)cc21 | - | VERO | >50 µg/mL |
| C[C@H]1O[C@@H](O[C@H]2CC[C@@]3(C)[C@H](CC[C@@H]4[C@@H]3C[C@@H](O)[C@]3(C)[C@@H](C5=CC(=O)OC5)CC[C@]43O)C2)C[C@H](O)[C@@H]1O[C@H]1C[C@H](O)[C@H](O[C@H]2C[C@H](O)[C@H](O[C@@H]3C[C@H](CO)[C@@H](O)[C@H](O)[C@H]3O)[C@@H](C)O2)[C@@H](C)O1 | 333 | GMK AH1 | 0.54 µM |
| O=C(O)C(Cl)(Br)P(=O)(O)O | G | - | 790 µM |
| CCn1cc(C(N)=O)c(=O)c2ccc(N3CCN(C)CC3)cc21 | - | VERO | >50 µg/mL |
| C[C@H]1OC(O[C@H]2[C@@H](O)C[C@H](O[C@@]3(C)[C@@H](O)C[C@H](O[C@H]4CC[C@@]5(C)[C@H](CC[C@@H]6[C@@H]5C[C@@H](O)[C@]5(C)[C@@H](C7=CC(=O)OC7)CC[C@]65O)C4)O[C@@H]3C)O[C@@H]2C)C[C@H](O)[C@@H]1O | 333 | GMK AH1 | 0.65 µM |
| CCn1cc(C(N)=O)c(=O)c2ccc(I)cc21 | - | VERO | >100 µg/mL |
| O=C(O)C(Br)P(=O)(O)O | Lovelace | - | 890 µM |
| CC(=O)O[C@H]1C[C@H](n2cc(/C=C/Br)c(=O)[nH]c2=O)O[C@@H]1COP1(=O)OCc2cccc(C)c2O1 | G (TK+) | VERO | >128 µg/mL |
| COc1ccc2c(=O)c3c(OC)cc4c(c3n(C)c2c1OC)C=CC(C)(C)O4 | - | HEF | 6.5 µg/mL |
| CCn1cc(C(N)=O)c(=O)c2ccc(-c3ccccc3)cc21 | - | VERO | >50 µg/mL |
| O=c1[nH]c(=O)n([C@H]2C[C@H](O)[C@@H](COP3(=O)OCc4cc5ccccc5cc4O3)O2)cc1/C=C/Br | G (TK+) | VERO | >128 µg/mL |
| Nc1nc2c(ncn2OC(/C=C/P(=O)(O)O)CO)c(=O)[nH]1 | MS | MRC-5 | >300 µM |
| COc1ccc2c(c1)COP(=O)(OC[C@H]1O[C@@H](n3cc(/C=C/Br)c(=O)[nH]c3=O)C[C@@H]1O)O2 | G (TK+) | VERO | >128 µg/mL |
| COC(=O)[C@H](C)NP(=O)(OCC1C/C1=C\n1cnc2c(N)ncnc21)Oc1ccccc1 | - | VERO | >10 µM |
| C=C(/C=C/P(=O)(O)O)Cn1cnc2c(=O)[nH]c(N)nc21 | MS | MRC-5 | >300 µM |
| O=C(NCCc1c[nH]c2ccccc12)C1=Cc2ccncc2CC1 | E194 | HFF | 3.1 µM |
| COc1cc2c(c3c1c(=O)c1ccccc1n3C)C=CC(C)(C)O2 | - | HEF | 3.3 µg/mL |
| Nc1ncnc2c1ncn2OC(/C=C/P(=O)(O)O)CO | MS | MRC-5 | >300 µM |
| COC(=O)[C@H](C)NP(=O)(OC[C@H]1C/C1=C/n1cnc2c(OC)nc(N)nc21)Oc1ccccc1 | - | VERO | 0.6 µM |
| CCn1cc(C2=NCCN2)c(=O)c2ccc(-c3ccncc3)cc21 | - | VERO | >100 µg/mL |
| C[C@H](N)C(=O)O[C@H]1C[C@H](n2cc(/C=C/Br)c(=O)[nH]c2=O)O[C@@H]1COP1(=O)OCc2ccccc2O1 | G (TK+) | VERO | >128 µg/mL |
| Nc1nc2c(ncn2[C@H]2C[C@]23C[C@@H]3CO)c(=O)[nH]1 | - | VERO | >50 µM |
| CC(C)NCC(O)c1ccc(O)c(O)c1 | G | HEL | 57 µg/mL |
| Cc1cccc2c1OP(=O)(OC[C@H]1O[C@@H](n3cc(/C=C/Br)c(=O)[nH]c3=O)C[C@@H]1OC(=O)[C@@H](N)C(C)C)OC2 | G (TK+) | VERO | >128 µg/mL |
| Nc1ccn(OC(/C=C/P(=O)(O)O)CO)c(=O)n1 | MS | MRC-5 | >300 µM |
| CCCCCC(=O)O[C@H]1C[C@H](n2cc(/C=C/Br)c(=O)[nH]c2=O)O[C@@H]1COP1(=O)OCc2cccc(C)c2O1 | G (TK+) | VERO | >128 µg/mL |
| CCn1cc(C(N)=O)c(=O)c2ccc(-c3ccc([N+](=O)[O-])cc3)cc21 | - | VERO | >100 µg/mL |
| Nc1nc2c(ncn2[C@H]2C[C@@]23C[C@H]3CO)c(=O)[nH]1 | - | VERO | >50 µM |
| CCOC(=O)c1cc(O)c(O)c(O)c1 | G | HEL | 4 µg/mL |
| O=C(O)C(F)P(=O)(O)O | Lovelace | - | 150 µM |
| CO[C@H]1C[C@H](O[C@H]2CC[C@]3(C=O)[C@H]4CC[C@]5(C)[C@@H](C6=CC(=O)OC6)CC[C@]5(O)[C@@H]4CC[C@]3(O)C2)O[C@H](C)[C@H]1O[C@@H]1O[C@H](CO[C@@H]2O[C@H](CO)[C@@H](O)[C@H](O)[C@H]2O)[C@@H](O)[C@H](O)[C@H]1O | 333 | GMK AH1 | 0.34 µM |
| COc1cc(O)c2c(=O)c3cccc(O)c3n(C)c2c1OC | Phosphonoacetic acid-resistant | HEF | 0.63 µg/mL |
| N=C(N)c1cn([C@H]2C[C@H](O)[C@@H](CO)O2)c2ncnc(N)c12 | MS | VERO | 9 µM |

4 of the rows above, restated:

SMILES | strain or isolate | cells | value
COc1nc(N)nc2c1ncn2C=C1CC1CO | - | VERO | >50 µM
Nc1ccn(OC(/C=C/P(=O)(O)O)CO)c(=O)n1 | MS | MRC-5 | >300 µM
O=C(O)P(=O)(O)O | B4327UR | SIRC | <100 µM
CCn1cc(C(N)=O)c(=O)c2ccc(N3CCN(C)CC3)cc21 | - | VERO | >50 µg/mL